Laboratory results: PubChem BioAssay AID1259414 (Drosophila RNAi Screening Center, 2018)

Test: 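Host factors increasing or decreasing Wolbachia levels in cultured fly cells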 (primary screen)
Cell system: Drosophila JW18 cells infected with Wolbachia
Reagent: long dsRNA against Drosophila genes, 0.25 µg dsRNA per well of a 384-well plate
Time to read-out: 5 days
Challenge: cells persistently infected with Wolbachia before knock-down; no added drug
Measured: 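Automated imaging of bacterial rRNA staining divided by host cell count, reported as plate-normalised robust z-score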
Scale: Wolbachia per cell robust z: higher = more Wolbachia per host cell than the plate typical
Call rule: 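Active if absolute robust z reaches 1.5 in two or more of three replicates, leaving out multi- or no-target dsRNAs, genes unexpressed in JW18 and A1 wells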
The deposit covers about 24,000 reagents; this is an unselected part of those with a known target gene and a result. Of all reagents, about 1,210 (5%) were called active. 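Inactive calls also include excluded dsRNAs with several or no targets, genes unexpressed in JW18, and well A1, regardless of score.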 Unmarked entries are inactive.

CG32532 [DRSC19556] → Wolbachia per cell robust z, rep 1: 0.681; Wolbachia per cell robust z, rep 2: 0.636; Wolbachia per cell robust z, rep 3: 0.671
CG32532 [DRSC19557] → Wolbachia per cell robust z, rep 1: -6.56; Wolbachia per cell robust z, rep 2: 0.619; Wolbachia per cell robust z, rep 3: 0.576
CG32532 [DRSC21370] → Wolbachia per cell robust z, rep 1: 0.544; Wolbachia per cell robust z, rep 2: -0.771; Wolbachia per cell robust z, rep 3: 0.824
CG30379 [DRSC05070] → Wolbachia per cell robust z, rep 1: -2.28; Wolbachia per cell robust z, rep 2: -1.1; Wolbachia per cell robust z, rep 3: 0.186
Cox11 [DRSC22692] → Wolbachia per cell robust z, rep 1: 0.635; Wolbachia per cell robust z, rep 2: 0.118; Wolbachia per cell robust z, rep 3: -1.32
Ctl2 [DRSC14423] → Wolbachia per cell robust z, rep 1: 0.605; Wolbachia per cell robust z, rep 2: 0.545; Wolbachia per cell robust z, rep 3: -0.0699
Ctl2 [DRSC29712] → Wolbachia per cell robust z, rep 1: -0.752; Wolbachia per cell robust z, rep 2: 0.693; Wolbachia per cell robust z, rep 3: 0.739
CG5681 [DRSC02876] → Wolbachia per cell robust z, rep 1: 0.711; Wolbachia per cell robust z, rep 2: 0.8; Wolbachia per cell robust z, rep 3: 0.497
CG5681 [DRSC24022] → Wolbachia per cell robust z, rep 1: -0.0158; Wolbachia per cell robust z, rep 2: 0.428; Wolbachia per cell robust z, rep 3: 0.871
CG3330 [DRSC15477] → Wolbachia per cell robust z, rep 1: 0.695; Wolbachia per cell robust z, rep 2: -8.55; Wolbachia per cell robust z, rep 3: 0.427
CG4945 [DRSC06904] → Wolbachia per cell robust z, rep 1: -1.47; Wolbachia per cell robust z, rep 2: 0.738; Wolbachia per cell robust z, rep 3: -0.825
CG4945 [DRSC29644] → Wolbachia per cell robust z, rep 1: 0.144; Wolbachia per cell robust z, rep 2: 0.292; Wolbachia per cell robust z, rep 3: -0.201
slp1 [DRSC00835] → Wolbachia per cell robust z, rep 1: 0.0078; Wolbachia per cell robust z, rep 2: -0.54; Wolbachia per cell robust z, rep 3: 1.03
slp1 [DRSC24204] → Wolbachia per cell robust z, rep 1: 0.847; Wolbachia per cell robust z, rep 2: 0.253; Wolbachia per cell robust z, rep 3: 0.00152
Osi20 [DRSC12568] → Wolbachia per cell robust z, rep 1: -0.47; Wolbachia per cell robust z, rep 2: -2.59; Wolbachia per cell robust z, rep 3: -0.24
Osi20 [DRSC28630] → Wolbachia per cell robust z, rep 1: -1.24; Wolbachia per cell robust z, rep 2: 0.627; Wolbachia per cell robust z, rep 3: 0.411
CG15615 [DRSC06568] → Wolbachia per cell robust z, rep 1: -0.752; Wolbachia per cell robust z, rep 2: -2.02; Wolbachia per cell robust z, rep 3: 0.0411
CG15615 [DRSC29555] → Wolbachia per cell robust z, rep 1: 0.436; Wolbachia per cell robust z, rep 2: 1.28; Wolbachia per cell robust z, rep 3: 0.386
CG11309 [DRSC11650] → Wolbachia per cell robust z, rep 1: -2.08; Wolbachia per cell robust z, rep 2: -0.628; Wolbachia per cell robust z, rep 3: -1.7
CG11309 [DRSC28126] → Wolbachia per cell robust z, rep 1: 0.47; Wolbachia per cell robust z, rep 2: -2.33; Wolbachia per cell robust z, rep 3: -0.578
CG16717 [DRSC10221] → Wolbachia per cell robust z, rep 1: -3.34; Wolbachia per cell robust z, rep 2: 1.06; Wolbachia per cell robust z, rep 3: 1.08
CG16717 [DRSC29511] → Wolbachia per cell robust z, rep 1: -0.264; Wolbachia per cell robust z, rep 2: 1.12; Wolbachia per cell robust z, rep 3: -5.65
CG5934 [DRSC15922] → Wolbachia per cell robust z, rep 1: -0.00552 (active); Wolbachia per cell robust z, rep 2: -1.64; Wolbachia per cell robust z, rep 3: -1.64
CG5934 [DRSC27431] → Wolbachia per cell robust z, rep 1: -1.08; Wolbachia per cell robust z, rep 2: -0.44; Wolbachia per cell robust z, rep 3: 0.943
